“And” between values parts separate entries of the source, which are not always exact repeats. Equal values may be shown once. Read-outs that look alike come from different tables or passages of the source. Some results are limits rather than exact numbers.

Data set [1] relates to non-expressing DX3puro control tumors.
Data set [2] is described as follows: Biodistribution in paired DX3puroβ6/DX3puro xenograft mouse model: organs, urine, blood. It counts as in vivo, mice.
The subject of data set [3] is integrin αvβ6-expressing DX3puroβ6 tumors. The conditions noted are these: for POS/NEG tumor ratio, in words: DX3puroβ6/DX3puro, 1-4 h.
For data set [4] the following is noted: for Number of metabolites in urine: radio HPLC.
Data set [5] concerns BxPC-3 tumors (endogenous αvβ6-expression). Particulars: for POS/NEG tumor ratio, in words: BxPC-3/MIA PaCa-2, 1-4 h. How it is done: (PBS) or 37° C. (serum), followed by analysis on radio HPLC. Data are expressed as % probe remaining intact in sample. […] Tumor models—DX3puroβ6/DX3puro: Human melanoma cell line. DX3puroβ6 has been stably transfected to express integrin αvβ6. DX3puro is negative control cell line. […] BxPC-3: Pancreatic cell line with endogenous αvβ6-expression. MIA PaCa-2: Pancreatic cell line, no αvβ6-expression.

Data set [6] concerns MIA PaCa-2 tumors (no αvβ6-expression).
For data set [7] the following is noted: mouse serum, 1 hour, 37° C., radio RP-HPLC.
The conditions of data set [8]: 37° C., 120 min (2 h).
For data set [9] the following is noted: formulated radiotracer, radio-HPLC.
For data set [10] the following is noted: ~6 h.
Test in data set [11]: not given
This is another data set of the same source.

The conditions of data set [12]: 1 h post-injection.
Data set [13] has as its system αvβ6-expressing tumor. The conditions noted are these: cited from earlier work.
Setting [14] is: summary statement, model and time point not given.

Consider 18F-FBA-A20FMDV2-PEG28 [compound 4], for which the “DX3puro (NEG) tumor uptake” value in data set [1] (1 h p.i.) is 0.5 % ID/g. Besides, the “DX3puro (NEG) tumor uptake” value in data set [1] (2 h p.i.) came out at 0.3 % ID/g. For the same substance, the “DX3puro (NEG) tumor uptake” value in data set [1] (4 h p.i.) stood at 0.1 % ID/g. For the same substance, the Urine radioactivity in data set [2] (at 1.2 h (so in the source)) was greater than 1000 % ID/g. Further, in data set [2] (time point not given), the Gall bladder uptake is recorded as less than 10 % ID/g; the “Kidney uptake after clearing over time” value is roughly 2 % ID/g; the “LgInt uptake, first value of time course” value is given as roughly 9 % ID/g; the “LgInt uptake, last value of time course” value was determined as 2 % ID/g. In [2] (time point not given), the Liver uptake is reported as less than 0.5 % ID/g; the “Lung uptake, first value of time course” value is reported as roughly 3 % ID/g; the “Lung uptake, last value of time course” value is recorded as 2 % ID/g; the “Stomach uptake, first value of time course” value is roughly 12 % ID/g. The “Stomach uptake, last value of time course” value in [2] (time point not given) is listed as 2 % ID/g. In addition, the “POS/NEG tumor ratio, in words” value in data set [3] was “Moderate, relatively steady POS/NEG over time”. In [3] (setting [14]), this substance registered an Initial tumor uptake greater than 1 % ID/g. Moreover, the “Number of metabolites in urine” value in [4] came to 3.

“18F-FBA-PEG28-PEG28-A20FMDV2 [compound 3]” yielded a Kidney uptake (1 h) of 43 % ID/g, a Kidney uptake (4 h) of 42 % ID/g, a Kidney uptake in data set [2] (1 h) of 41 % ID/g and a Kidney uptake in data set [2] (4 h) of 46 % ID/g. In addition, the Lung uptake (1 h) was 1.7 % ID/g, the Lung uptake (4 h) amounted to 1.3 % ID/g, the Lung uptake in data set [2] (1 h) was found to be 1.1 % ID/g and the Lung uptake in [2] (4 h) stood at 1.3 % ID/g. This substance returned a Stomach uptake (1 h) of 2.3 % ID/g, a Stomach uptake (4 h) of 6.6 % ID/g, a Stomach uptake in data set [2] (1 h) of 5.5 % ID/g and a Stomach uptake in data set [2] (4 h) of 5.5 % ID/g. Moreover, the Urine radioactivity (1 h) is roughly 1500 % ID/g and the Urine radioactivity in data set [2] (1 h) is reported as roughly 60 % ID/g. Also, under setting [14], the “Kidney level (trapped, no release)” value is 40 % ID/g. The substance also yielded a Gall bladder uptake (time point not given) of less than 1.5 % ID/g and a Gall bladder uptake in [2] (time point not given) of less than 3 % ID/g. Further, the Liver uptake (time point not given) is given as less than 0.2 % ID/g and the Liver uptake in data set [2] (time point not given) was less than 0.1 % ID/g. Besides, the “DX3puro (NEG) tumor uptake” value is 0.11 % ID/g in data set [1] (1 h p.i.) and 0.07 % ID/g in data set [1] (4 h p.i.). The “POS/NEG tumor ratio, in words” value in data set [5] is listed as “Good POS/NEG ratio, significantly increasing over time”; in data set [3], “Good POS/NEG ratio, increasing over time”. Further, the “MIA PaCa-2 (NEG) tumor uptake” value in [6] (1 h p.i.) came out at 0.22 % ID/g; in [6] (4 h p.i.) it was 0.12 % ID/g.

Take 18F-FBA-PEG28-A20FMDV2 [compound 2]: the Kidney uptake (1 h) was 19 % ID/g, the Kidney uptake (4 h) was 3.3 % ID/g, the Kidney uptake in data set [2] (1 h) turned out to be 25 % ID/g and the Kidney uptake in [2] (4 h) is on record as 2.7 % ID/g. This substance came in with a Lung uptake (1 h) of 2.1 % ID/g, a Lung uptake (4 h) of 1.7 % ID/g, a Lung uptake in data set [2] (1 h) of 2.0 % ID/g and a Lung uptake in [2] (4 h) of 1.4 % ID/g. The Stomach uptake (1 h) stood at 2.6 % ID/g, the Stomach uptake (4 h) was 1.9 % ID/g, the Stomach uptake in data set [2] (1 h) came to 7 % ID/g and the Stomach uptake in data set [2] (4 h) came out at 1.8 % ID/g. Besides, the Urine radioactivity (1 h) is listed as roughly 400 % ID/g and the Urine radioactivity in data set [2] (1 h) is recorded as roughly 200 % ID/g. Also, the Gall bladder uptake (time point not given) is given as less than 4 % ID/g and the Gall bladder uptake in [2] (time point not given) is given as less than 3 % ID/g. Besides, the Liver uptake (time point not given) was less than 0.2 % ID/g and the Liver uptake in [2] (time point not given) was less than 0.1 % ID/g. For the same substance, the “DX3puro (NEG) tumor uptake” value is 0.11 % ID/g in data set [1] (1 h p.i.) and 0.07 % ID/g in data set [1] (4 h p.i.). This substance also registered a Tumor uptake in [5] (summary statement, time point not given) of roughly 2 % ID/g. The “POS/NEG tumor ratio, in words” value in data set [3] was “Good POS/NEG ratio, increasing for later time points, highest at 2 h”. For the same substance, the “Number of metabolites in urine” value in [4] is recorded as “a major metabolite”.

For [^18F]FBA-RSDLTPLF-NH2, the “Serum stability (intact peptide)” value in data set [7] was determined as 66%.

Consider H-RSDLTPLFK([^18F]FBA)-NH2, for which the “Serum stability (intact peptide)” value in data set [7] came to 18.6%.

The substance “[^18F]FBA-PEG28-A20FMDV2 K16R-PEG28 [compound 5R]” registered an Intact in serum in data set [8] of 90%. Besides, the Kidney uptake in data set [2] (4 h) is < 8 % ID/g and 7.87 % ID/g. Further, in data set [9], the “Decomposition in the radiotracer formulation” value is “no partial decomposition”.

Take “18F-FBA-PEG28-A20FMDV2-PEG28 [compound 5]”: the “Gall bladder, stomach, intestines uptake (all)” value reads like this: (1 h) less than 20 % ID/g; (4 h) less than 10 % ID/g. Besides, the Kidney uptake (1 h) was 76 % ID/g, the Kidney uptake (4 h) amounted to 19.3 % ID/g, the Kidney uptake in data set [2] (1 h) is listed as 58 % ID/g and the Kidney uptake in [2] (4 h) came out at 20 % ID/g. The Urine radioactivity (1 h) was found to be 482 % ID/g, the Urine radioactivity (4 h) is recorded as 223 % ID/g, the Urine radioactivity in [2] (1 h) was 396 % ID/g and the Urine radioactivity in data set [2] (4 h) is reported as 135 % ID/g. The same substance had a Lung uptake (steady over time) of roughly 2 % ID/g and a Lung uptake in [2] (steady over time) of roughly 2 % ID/g. Besides, the “Liver, pancreas uptake” value (time point not given) was less than 1 % ID/g. Further, the “DX3puro (NEG) tumor uptake” value is 0.39 % ID/g in [1] (1 h p.i.) and 0.14 % ID/g in data set [1] (4 h p.i.). Besides, the “Intact in PBS” value in data set [10] was greater than 92%. In addition, the “BxPC-3 (POS) tumor uptake” value in data set [5] (1 h p.i., listed as FBA-PEG28-A20FMDV2-PEG28) worked out at 4.7 % ID/g; in data set [5] (4 h p.i., listed as FBA-PEG28-A20FMDV2-PEG28) it was 3.4 % ID/g. Besides, the Gall bladder uptake in data set [2] (1 h) is given as 7 % ID/g; in data set [2] (4 h), 2.7 % ID/g. The same substance yielded a Liver uptake in data set [2] (1 h) of less than 0.5 % ID/g. For the same substance, the Stomach uptake in data set [2] (1 h) stood at 11 % ID/g; in [2] (4 h) it was 8 % ID/g. The same substance displayed a LgInt uptake in [2] (steady over time) of roughly 5 % ID/g. Also, the “Decomposition in the radiotracer formulation” value in data set [9] is listed as “around 5%”. Also, in data set [3], the “POS/NEG tumor ratio, in words” value is given as “Good POS/NEG ratio, increasing over time”. Further, the “Fraction of probe intact in urine, in words” value in data set [4] (1 h) is recorded as “Over two-thirds”; in data set [4] (4 h) it was “approx. half”. The “Intact radiotracer in urine” value was 69% and 67% in [4] (1 h); 78% in data set [4] (2 h); 45% in [4] (4 h). The “Main metabolite in urine ([…])” value in [4] (1 h) is 31% and 29%; in data set [4] (2 h), 16%; in data set [4] (4 h), 55%. In data set [4], the “Number of metabolites in urine” value is recorded as “only one metabolite”. Besides, the “Probe intact in tumor” value in data set [11] (1 h, DX3puroB6 and BxPC-3 tumors) was greater than 80%. In data set [11] (1 h post-injection), the “Stability (intact radiotracer) in BxPC-3 tumor” value is 81.45%. In data set [11] (peak at 17.4 min), the “Intact radiotracer in DX3puroB6 tumor” value is 82-84%. Further, the “Likely metabolites in DX3puroB6 tumor” value in [11] (peaks at 17.0-17.2 min) was 14-18%. Further, the “Stability (intact radiotracer) in kidneys” value in data set [12] is reported as 88.5%; in data set [12] (listed as FBA-PEG28-A20FMDV2-PEG28) it was roughly 90%.

Regarding 18F-FBA-A20FMDV2 [compound 1], the “Percent injected dose per gram of αvβ6-expressing tumor” value is listed as 0.66 % ID/g in data set [13] (1 h post injection), 0.28 % ID/g in data set [13] (2 h post injection) and 0.06 % ID/g in data set [13] (4 h post injection). Besides, the figures for the “Number of metabolites in urine” value in data set [13] (by one hour) and in data set [4] were “three” and 3, respectively. Further, the “Unmetabolized peptide in urine, in words” value in [13] (by one hour) is “no unmetabolized peptide was detected”. This substance also registered a Lung uptake (2, 4 h) of less than 0.1 % ID/g; a Lung uptake (1 h) of 0.8 % ID/g; a Lung uptake in data set [2] (2, 4 h) of 0.4 % ID/g; a Lung uptake in data set [2] (1 h) of 1.6 % ID/g. In addition, the Kidney uptake (1 h) was less than 4 % ID/g, the Kidney uptake (4 h) is less than 0.2 % ID/g, the Kidney uptake in data set [2] (1 h) is listed as less than 6 % ID/g and the Kidney uptake in [2] (4 h) is reported as less than 0.5 % ID/g. The substance further displayed a Stomach uptake (1 h) of 0.5 % ID/g and a Stomach uptake in [2] (1 h) of less than 4 % ID/g. In addition, the Urine radioactivity (at 1.2 h (so in the source)) is greater than 300 % ID/g and the Urine radioactivity in [2] (at 1.2 h (so in the source)) was greater than 900 % ID/g. The results for the “DX3puro (NEG) tumor uptake” value in data set [1] (1 h p.i.) and in [1] (4 h p.i.) were 0.49 % ID/g and 0.19 % ID/g, respectively. Moreover, the “BxPC-3 (POS) tumor uptake” value in [5] (1 h p.i.) worked out at 0.69 % ID/g; in [5] (4 h p.i.), 0.12 % ID/g. For the same substance, the “POS/NEG tumor ratio, in words” value is reported as “Good POS/NEG ratio, increasing over time, better than Dx3puroB6/Dx3puro pair” in [5] and “Moderate POS/NEG ratio, going to near-parity @ 4 h” in [3]. In addition, the “DX3puroβ6 (POS) tumor uptake” value in [3] (1 h p.i.) worked out at 0.88 % ID/g; in [3] (4 h p.i.), 0.23 % ID/g. Also, the “Urine metabolites, share per HPLC peak” value in data set [4] (peaks at 9.0, 10.4, 10.8 min, ratio varies between animals/time points) is 44% and 30% and 26%. For the same substance, the “MIA PaCa-2 (NEG) tumor uptake” value in [6] (1 h p.i.) is listed as 0.16 % ID/g; in [6] (4 h p.i.) it was 0.01 % ID/g.

On to [^18F]FBA-RSDLTPLFK(NH2)-NH2, for which the “Serum stability (intact peptide)” value in data set [7] is given as 95.2%.

The values above are taken from patent US11485758B2, “Bi-terminal pegylated integrin-binding peptides and methods of use thereof” (The Regents of the University of California, priority 2014, dated 2022).
